Measurements: patent publication US5665357, “Antibodies recognizing tumor associated antigen CA 55.1” (dated 1997)

Biological target: tumour associated antigen CA55.1 (human (COLO 205 human colorectal carcinoma cell line))

Q: Which IC50 against COLO 205 cells (cytotoxicity) does the source give for “55.1:ricin A immunotoxin (antibody 55.1 conjugated to recombinant ricin A) (from UniProt P02879)” here?
A: 10 pM
